One assay deals with H1N1 A/PR/8/1934. On the set-up: species or system DBA/2J mice. The following applies: mouse.
Assay [1] has as its system H5N1 A/Vietnam/1203/04 influenza A virus. On the set-up: species or system ferrets (Mustela putorius furo). As to conditions: in vivo, iv, 25 mg/kg.

Changes are numbered by the printed parent chain. “And” between values parts separate entries of the source, which are not always exact repeats. Identical values can stand only once.

B1: mAb 39.29 NCv1: anti-hemagglutinin monoclonal antibody; VL SEQ ID NO:144, VH SEQ ID NO:142 (antibody, V domains shown)
VH: QVQLVESGGGVVQPGKSPRLSCAASGPTFSSYAVHWVRQAPGKGLEWVTLISYDGANQYYADSVKGRFTISRDNSKNTVYLQMNSLRPEDTAVYYCAVPGPVFGIFPPWSYFDNWGQGILVTVSS
VL: EIVLTQSPATLSVSPGERATLSCRASQVISHNLAWYQQKPGQAPRLLIYGASTRASGIPARFSGSGSGTDYTLTITSLQPEDFAVYYCQHYSNWPPRLTFGGGTKVEIK
With B1, in the assay with H1N1 A/PR/8/1934 (in vivo), the “animals protected from lethal challenge” value came to 25% and the “efficacy versus control treatment group” value is recorded as “minimal efficacy”. The “infected mice saved (survival)” value in the assay with H1N1 A/PR/8/1934 (in vivo, iv, 15 mg/kg) was determined as 87.5%. The “minimum efficacious dose in vivo” value with H1N1 A/PR/8/1934 (iv) was 15 mg/kg.

B2: mAb 39.29 D8C2: anti-hemagglutinin monoclonal antibody; VL SEQ ID NO:140, VH SEQ ID NO:138 (antibody, V domains shown)
VH: B1 VH with P18L, P27L
VL: B1 VL with P80S
Usually mortality stands for the share of the test organisms that died. High values mean a strong lethal effect, low ones a weak lethal effect. On to B2, for which, in assay [1], the mortality is 20% and 10%; the survival was 80% and 90%.

The values are drawn from patent publication US9598481B2 (priority 2012, dated 2017).
